Data taken from patent US4137310A, “Method for the control of cattle grubs employing a phenylene bis[imino(thio]carbonyl)diphosphor(thio)-amidic acid ester” (dated 1979).

The molecules below were run on Cuterebra sp. larvae (assay: Efficacy for the control of Cuterebra sp. in infested mice, oral treatment). Conditions: female mice, treated 48 hours after infestation, examined 4 days posttreatment, dosage that kills 90% of the larvae, log-probit.
For `CCOP(=O)(NC(=S)Nc1ccc(NC(=S)NP(=O)(OCC)OCC)c(Cl)c1)OCC`, the “Oral (mice) Dosage LD90” value was 151.84 mg/kg.
`CCOP(=O)(NC(=S)Nc1ccccc1NC(=S)NP(=O)(OCC)OCC)OCC` was tested, and the “Oral (mice) Dosage LD90” value was 24.3 mg/kg.
For `CCOP(=O)(NC(=S)Nc1ccc(Cl)cc1NC(=S)NP(=O)(OCC)OCC)OCC`, the “Oral (mice) Dosage LD90” value was 8.22 mg/kg.
